In article PMC8073977:

B1: unnamed (parent)
chain 1: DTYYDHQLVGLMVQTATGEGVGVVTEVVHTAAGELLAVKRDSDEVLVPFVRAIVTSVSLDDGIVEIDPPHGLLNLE
chain 2: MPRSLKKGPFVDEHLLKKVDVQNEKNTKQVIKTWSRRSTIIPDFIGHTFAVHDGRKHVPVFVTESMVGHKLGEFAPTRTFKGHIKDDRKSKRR

Variants of: B1
Assay: SPR
Details: with partner chain of the complex shown; parent: 2.16e+03 nM

| Variant | Kd |
| --- | --- |
| chain 1 E44A | 5.05 µM |
| chain 1 E26A | 5.16 µM |
| chain 1 E34A | 3.82 µM |
